Mtb glucose medium: 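Whole-cell growth test on Mycobacterium tuberculosis, read after 3 days in glucose-containing 7H9 medium; the read-out is not stated. Concentration: 500 µM. Higher reads as more growth inhibition (inferred: compounds with an IC50 in retests scored well above the rest). Of about 18,000 compounds tested this way, about 1,400 (7.9%) reached 50% or more in at least one test.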
Mtb cholesterol medium: 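Phenotypic screen: M. tuberculosis growth, cholesterol and DPPC medium, 4 days; the read-out is not stated. Concentration: 500 µM. Direction is inferred from retests: higher values go with more growth inhibition. Of about 18,000 compounds tested this way, about 900 (5%) reached 50% or more in at least one test.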

Results are given as percent effect. The record does not define 0% and 100%; most values in the screen are far below 50% and negative numbers occur (in some assays of this library far below -100). This is part of a subset picked to be rich in strong results. A dash means the value is not listed here; it may have been measured.

compound	Mtb glucose medium	Mtb cholesterol medium
COCCCOC1CN(C(=O)c2ccc(Cl)cn2)C1	61.68	66.75
O=C(c1cnccn1)N1CCCC1c1ccsc1 (stereo not shown)	-	-2.983
CCOC(=O)c1csc(NC(=O)c2cnccn2)n1	-8.767	-
CN(CCn1ccnc1)Cc1ccccc1OCCO	4.999	-
CCN1C(=O)CC(NCc2ccc3c(c2)OCO3)C1=O (stereo not shown)	12.73	-
CNCCCNCc1ccc2c(c1)n(C)c(=O)n2C	-4.842	-
Cc1ccccc1NC(=O)c1ncccn1	0.05112	-
c1cnn(CCN2CCCCC2Cn2cncn2)c1 (stereo not shown)	2.247	-
CN(C)C1(CN)Cc2ccccc2C1	54.85	-
Cc1ccc2oc(CN)cc2c1	-6.921	-3.703
OCCc1ccccc1CO	9.202	-
CC(C)Cc1cc(C(=O)NCC2CCCN(C)C2)[nH]n1 (stereo not shown)	-	9.064
Cc1c(C(C)N[C@@H]2C=C[C@H](CO)C2)cnn1C (stereo partly shown)	-2.087	-
O=C(NC1CCCNC1)c1coc2ccccc12 (stereo not shown)	56.31	-
CNC1CC(=O)N(Cc2ccccc2)C1=O (stereo not shown)	3.068	1.407
COCCC(=O)N1CCC(Nc2ncccc2Br)CC1	67.3	56.79
COc1ccccc1CN1CCC(N)CC1	62.09	-
CC(C)C(Nc1cnn(C)c(=O)c1Cl)C(N)=O (stereo not shown)	7.487	-
Cc1nnc(SCC(=O)NC2CC2)n1-c1ccccc1	24.66	-
COCCNC(=O)c1cc2ccccc2[nH]1	-	16.61
Cc1nccn1CCCN(C)CC1COCCO1 (stereo not shown)	-12.81	-
CCOc1cc(Cl)c(CNCCO)cc1OC	13.59	-
Cc1n[nH]c(SCC(=O)N2CCc3ccccc32)n1	9.62	-
CCn1ccc(C(=O)N(C)Cc2cccnc2OC)n1	60.43	63.03
COC(=O)CCC(=O)Nc1ccccc1F	2.085	-
Fc1cccnc1N1CCNCC1	16.02	-
Cn1cc(CN2CCCC(CO)(CC3CC3)C2)cn1 (stereo not shown)	-	3.952
NC(=O)CC1CNC1	-	-1.029
Cc1nc(NCCc2cc[nH]n2)cc(C2CC(O)C2)n1 (stereo not shown)	-8.728	-
COc1ccc([C@H]2C[C@H](N)C2)cc1F	61.75	-
CNc1cc(CN(C)Cc2ccccc2)ccn1	61.14	67.6
CNc1cc(C(=O)N2CC[C@](C)(O)[C@H](C)C2)ccn1	-	-9.205
CC(CCn1cccn1)NC1CCOCC1 (stereo not shown)	-4.933	-
COCCN(C(=O)Cc1cccc(C)c1)C(C)C(N)=O (stereo not shown)	-	4.316
NC(=O)CN1CCN(CCOc2ccc(Cl)cc2)CC1	25.46	-
CC1CN(C(=O)Cc2ccsc2)CCO1 (stereo not shown)	18.16	-
O[C@@H](Cc1ccccn1)c1ccccc1	25.49	-
COc1cccc(CNC(=O)N2CCSCC2)c1OC	14.32	-
CN(C)C(=O)N1CCCC(C(=O)Nc2ccccn2)C1 (stereo not shown)	30.31	-
c1c[nH]c(C2CCCNC2)n1 (stereo not shown)	-	-10.09
CC(C)n1cnc(S(=O)(=O)NCC2CCCCN2)c1 (stereo not shown)	-	2.317
OC(CN1CCn2ccnc2C1)c1cccc(F)c1 (stereo not shown)	50.03	-
CCC(CN)NC(=O)OC(C)(C)C (stereo not shown)	15.1	-
CC1(NC(=O)c2ccc(F)c(F)c2)CCS(=O)(=O)C1 (stereo not shown)	18.02	-
CNc1cc(C(N)=O)c2cccc(Cl)c2n1	37.94	-
Cc1ccc(CN)c(OCC2CCCO2)c1 (stereo not shown)	-1.637	-
Cc1ccc(C(=O)NCc2nnnn2C2CC2)c(Br)c1	-	-10.42
O=C(CCc1nnc(-c2ccsc2)o1)NC1=NCCS1	-	1.082
CN(C)[C@@H]1CN(C(=O)c2ccccc2Br)C[C@H]1CO	-14.88	-
COc1cccc2c1CCN(C(=O)c1cnn(C)c1)C2	-	18.97
Cc1cc(NC(CO)CO)nc2ccccc12	-	8.314
CS(=O)(=O)c1ccc(C2CNCCO2)cc1 (stereo not shown)	-5.144	-
O=C1CCCN1CCN1CCCC(CO)(CC2CC2)C1 (stereo not shown)	13.07	-
Cc1ccc(NC(=O)C(C)N2CCC(O)CC2)cc1F (stereo not shown)	61.53	54.47
CC(=O)N1CCCN(c2ccncc2N)CC1	2.683	-
CCCc1nnc(NC(=O)c2cccnc2OCC)s1	-8.35	-
Cc1cc(CS(=O)(=O)c2ccccn2)no1	9.106	-
CCCC(O)CNS(=O)(=O)c1ccc(C(=O)NC)cc1 (stereo not shown)	12.95	-
CCNC(=O)CCC(=O)N(C1CC1)C(C)c1ccco1 (stereo not shown)	15.51	-
Cc1c[nH]c(C(=O)N2CCCC[C@H](N(C)C)C2)n1	12.47	-
CCn1ncnc1CN1C[C@H](O)[C@@H](N2CCCCC2)C1	0.8114	-
CC(C)CNC(=O)c1[nH]cnc1C(=O)N1CCCCC1	15.82	-
O=C(CN1CCCN(CC2CC2)CC1)N1CCCC1	-	5.955
OC(Cc1ccccc1)C1CCNCC1 (stereo not shown)	-	-7.945
O=C1CNC(=O)C2(CC2)N1	1.486	-
CCC(CO)(CO)NC(=O)c1csc(C(C)C)n1	18.59	-
Cc1noc(CN2CCC(C(N)=O)CC2)n1	-3.443	-
N#Cc1ccc(Sc2nnc(N3CCCC3)s2)nc1	-	-23.69
COCCNCC(=O)Nc1cccc(CSC)c1	51.91	-
COCCc1noc(CN2CC[C@H](CO)[C@H](O)C2)n1	7.656	-
Cc1c([C@@H]2OCC[C@H]2N)cnn1C	6.005	-
CCOc1ccc(-n2c(CCN)n[nH]c2=O)cc1	-	5.344
CCOC(=O)COc1ccc(C(N)=O)cc1	-	-21.61
Cc1ccc(C(=O)N2CCN(C)CC2)cn1	12.34	-
CCN[C@H](C)CNC(=O)c1ccccc1	-3.663	-
C[S+]([O-])c1nncn1CSCc1ccc(Cl)cc1 (stereo not shown)	-	48.5
CCC(CC)(CC)NC(=O)NCc1nccn1C	-3.25	-
CC(C)(N)C(C)(C)CO	0.7919	-

For reference, 9 entries once more:

compound,Mtb glucose medium,Mtb cholesterol medium
CN(CCn1ccnc1)Cc1ccccc1OCCO,4.999,-
Cc1ccc(NC(=O)C(C)N2CCC(O)CC2)cc1F (stereo not shown),61.53,54.47
COc1ccc([C@H]2C[C@H](N)C2)cc1F,61.75,-
O=C(CN1CCCN(CC2CC2)CC1)N1CCCC1,-,5.955
COCCNCC(=O)Nc1cccc(CSC)c1,51.91,-
Cn1cc(CN2CCCC(CO)(CC3CC3)C2)cn1 (stereo not shown),-,3.952
CCn1ccc(C(=O)N(C)Cc2cccnc2OC)n1,60.43,63.03
Cc1ccc(CN)c(OCC2CCCO2)c1 (stereo not shown),-1.637,-
COc1cccc2c1CCN(C(=O)c1cnn(C)c1)C2,-,18.97

From ChEMBL document CHEMBL3988442, “University of Dundee, Small-Polar-MMV Screening Library” (2021).